A mixed list of measured activities; the numbers were collected in NIAID ChemDB.

Shared fields: tests in culture

Lines come from different laboratories, so protocols vary.

compound | read-out | method | strain or isolate | dose | cells | organism | result
CCOC(=O)c1c(C)nc(NCCCNc2ccnc3cc(Cl)ccc23)nc1-c1ccccc1 | MIC99 | - | 29/10893 | - | - | Cryptococcus gattii | 4 µg/mL
Cc1cccc2c1C(=O)c1cnn(C)c1C2=O | inhibition | - | - | 100 µM | - | Cryptosporidium parvum | <10%
CC1(C)O[C@H]2[C@H](O)[C@@H](N=[N+]=[N-])C=C(c3ccc(C=O)cc3)[C@H]2O1 | inhibition | broth dilution / turbidity | ATCC 32264 | 125 µg/mL | - | Cryptococcus neoformans | 11.9%
CCC(C)n1ncn(-c2ccc(N3CCN(c4ccc(OC[C@H]5CO[C@](Cn6cncn6)(c6ccc(Cl)cc6Cl)O5)cc4)CC3)cc2)c1=O | MIC | broth dilution | D | - | - | Cryptococcus spp. | 2 µg/mL
C[C@@H](c1nc(-c2ccc(C#N)cc2)cs1)[C@](O)(Cn1cncn1)c1cc(F)ccc1F | MIC50 | broth dilution | VG IIc | - | - | Cryptococcus gattii | 0.25 µg/mL
C[C@@H](c1ncncc1F)[C@](O)(Cn1cncn1)c1ccc(F)cc1F | MIC | broth dilution | CBS 11816 | - | - | Cryptococcus gattii | 1 µg/mL
CN[C@H]1CC[C@@H](c2ccc(Cl)c(Cl)c2)c2ccccc21 | MIC90 | broth dilution | Bt81 | - | - | Cryptococcus neoformans | 5 µg/mL
Cn1ncc2c1C(=O)c1cccc(Br)c1C2=O | inhibition | - | - | 10 µM | - | Cryptosporidium parvum | <10%
O=C1/C(=C/c2ccc(O)c(O)c2)Oc2cc(O)ccc21 | inhibition | - | - | 25 µM | - | Cryptosporidium parvum | 76%
CCOC(=O)c1c(C)nc(NCCCCNc2ccnc3cc(Cl)ccc23)nc1-c1ccccc1 | MIC99 | - | 1913 ER | - | - | Cryptococcus gattii | 8 µg/mL
C[C@@H](c1ncncc1F)[C@](O)(Cn1cncn1)c1ccc(F)cc1F | MIC | broth dilution | Clinical isolate (IM 042074) | - | - | Cryptococcus neoformans | <0.015 µg/mL
NC[C@@H]1O[C@H](O[C@H]2[C@@H](O)[C@H](O[C@@H]3[C@@H](O)[C@H](N)C[C@H](N)[C@H]3O[C@H]3O[C@H](CO)[C@@H](O)[C@H](O)[C@H]3N)O[C@@H]2CO)[C@H](N)[C@@H](O)[C@@H]1O | EC50 | cell count | - | - | MDBK | Cryptosporidium parvum | <500 µg/mL
CCN(CC)c1ccc2cc(NNN)c(=O)oc2c1 | MIC | broth dilution | - | - | - | Cryptococcus gattii | >990 µM
Oc1ccc(O)c(C=Nc2ccccc2O)c1 | MIC99 | - | LMM 818 | - | - | Cryptococcus gattii | 8 µg/mL
Cn1nc(Cc2ccc(Cl)cc2)c2ccccc2c1=O | MIC | broth dilution | Clinical isolate (IM 983040) | - | - | Cryptococcus neoformans | 3.9 µg/mL
Oc1cccc(C=Nc2ccccc2O)c1 | MIC99 | - | ATCC 32608 | - | - | Cryptococcus gattii | 8 µg/mL
CO[C@H]1/C=C/O[C@@]2(C)Oc3c(C)c(O)c4c(O)c(c5c(c4c3C2=O)NC2(CCN(CC(C)C)CC2)N=5)=NC(=O)/C(C)=C\C=C\[C@H](C)[C@H](O)[C@@H](C)[C@@H](O)[C@@H](C)[C@H](OC(C)=O)[C@@H]1C | inhibition | - | - | 2 µg/mL | A549 | Cryptosporidium parvum | 11%
COc1cc(/C=C/C=C\c2ccccc2OC)oc(=O)c1 | EC50 | - | - | - | - | Cryptosporidium parvum | >50 µM
COc1c2c(c(O)c3ccccc13)C(=O)c1cnn(C)c1C2=O | inhibition | - | - | 50 µM | - | Cryptosporidium parvum | 90%
NC[C@@H]1O[C@H](O[C@H]2[C@@H](O)[C@H](O[C@@H]3[C@@H](O)[C@H](N)C[C@H](N)[C@H]3O[C@H]3O[C@H](CO)[C@@H](O)[C@H](O)[C@H]3N)O[C@@H]2CO)[C@H](N)[C@@H](O)[C@@H]1O | inhibition | luminescence | IOWA | 500 µg/mL | MDCK | Cryptosporidium parvum | 40.1%
Cn1ncc2c1C(=O)c1c(O)c3c(c(O)c1C2=O)CCCC3 | inhibition | - | - | 25 µM | - | Cryptosporidium parvum | <10%
NCCCC[C@H](NC(=O)[C@H](Cc1c[nH]c2ccccc12)NC(=O)[C@H](CCCCN)NC(=O)[C@@H](N)CCCCN)C(=O)O | inhibition | - | ATCC 32264 | 100 µM | - | Cryptococcus neoformans | 0%
CC[C@@H](C(=O)[C@@H](C)[C@@H](O)[C@H](C)CCc1ccc(C)c(O)c1C(=O)O)[C@H]1O[C@](CC)([C@H]2CC[C@](O)(CC)[C@H](C)O2)C[C@@H]1C | inhibition | - | - | 0.125 µg/mL | A549 | Cryptosporidium parvum | 12%
Cc1nc(NCCCCNc2ccnc3cc(Cl)ccc23)nc(-c2ccccc2)c1C(=O)OC(C)C | MIC99 | - | L 27/01 | - | - | Cryptococcus gattii | 32 µg/mL
O=C1/C(=C/c2ccc(O)cc2)Oc2cc(O)ccc21 | inhibition | - | - | 50 µM | - | Cryptosporidium parvum | 93%
O=C1c2cccc(O)c2C(=O)c2cn[nH]c21 | inhibition | - | - | 50 µM | - | Cryptosporidium parvum | 44%
O=C1/C(=C/c2ccc(O)cc2O)Oc2cc(O)ccc21 | inhibition | - | - | 50 µM | - | Cryptosporidium parvum | 99%
Oc1ccccc1C=Nc1ccccc1O | MIC99 | - | F-10 | - | - | Cryptococcus neoformans | 4 µg/mL
Cc1ccc2c(c1)C(=O)c1c(cnn1C)C2=O | inhibition | - | - | 50 µM | - | Cryptosporidium parvum | 77%

A second listing of 3 rows from above:

NCCCC[C@H](NC(=O)[C@H](Cc1c[nH]c2ccccc12)NC(=O)[C@H](CCCCN)NC(=O)[C@@H](N)CCCCN)C(=O)O ; read-out: inhibition ; strain or isolate: ATCC 32264 ; dose: 100 µM ; organism: Cryptococcus neoformans ; result: 0%
C[C@@H](c1nc(-c2ccc(C#N)cc2)cs1)[C@](O)(Cn1cncn1)c1cc(F)ccc1F ; read-out: MIC50 ; method: broth dilution ; strain or isolate: VG IIc ; organism: Cryptococcus gattii ; result: 0.25 µg/mL
CC1(C)O[C@H]2[C@H](O)[C@@H](N=[N+]=[N-])C=C(c3ccc(C=O)cc3)[C@H]2O1 ; read-out: inhibition ; method: broth dilution / turbidity ; strain or isolate: ATCC 32264 ; dose: 125 µg/mL ; organism: Cryptococcus neoformans ; result: 11.9%

A number after MIC or MFC names an inhibition level or a share of isolates. An empty or dashed field is not shown. Inhibition is in % at the dose shown (toxicity tests: loss of growth or viability). ECn is the concentration giving n% inhibition of infection, replication or growth.